Anti-infective test results gathered from many reports (values: NIAID ChemDB through PubChem).

Shared fields: whole-cell or culture tests; agent: Mycobacterium tuberculosis

MIC50, MIC90 and the like: level of inhibition, or share of isolates inhibited. Conditions beyond the fields shown may differ between rows. MIC bound comes from a single tested concentration. An empty or dashed field is not shown. Percent inhibition refers to the dose given; in toxicity tests it is the harm to the cells. ECn is the concentration giving n% inhibition of infection, replication or growth.

SMILES	strain	read by	read-out	tested at	value
c1ccc2c(c1)Sc1ccccc1N2Cc1cnc[nH]1	H37Rv	BACTEC	inhibition	12.5 µg/mL	23%
Cc1c(N2CCSCC2)c([N+](=O)[O-])cc2c(=O)c(C(=O)O)cn(C3CC3)c12	H37Rv	-	MIC	-	2 µM
Oc1c(Cl)cc(Cl)cc1-c1c(Cl)cc(Cl)c(Oc2ccc(Cl)cc2Cl)c1O	H37Rv	-	MIC	-	64 µg/mL
O=C1C=CC(O)(c2ccc3ccccc3c2)C=C1	H37Rv	-	EC50	-	>6.25 µg/mL
Cc1c(-c2ccc(C(c3ccccc3)N3CCN(C)CC3)cc2)c([N+](=O)[O-])cc2c(=O)c(C(=O)O)cn(C3CC3)c12	H37Rv	-	MIC	-	0.68 µM
COC1(c2nc3ccc(C)cc3s2)C=CC(=NS(=O)(=O)c2ccc(C)cc2)C=C1	H37Rv	-	EC50	-	>6.25 µg/mL
CC(=O)N1N=C(c2ccc(NC(=O)C(c3ccc(Cl)cc3)C(C)C)cc2)CC1/C=C/c1ccccc1	H37Rv	BACTEC	inhibition	6.25 µg/mL	25%
Cc1c(N2CCC(O)(c3ccc(Cl)cc3)CC2)c([N+](=O)[O-])cc2c(=O)c(C(=O)O)cn(-c3ccc(F)cc3F)c12	H37Rv	-	MIC	-	>21.93 µM
COc1ccc2cc([N+](=O)[O-])c3ccc(=O)oc3c2c1	MMDO	resazurin	MIC	-	50 µg/mL
Cn1c([N+](=O)[O-])cnc1-c1nnc(SCc2cccc([N+](=O)[O-])c2)s1	H37Rv	-	inhibition	6.25 µg/mL	0%
CSc1ncnc2c1cnn2COC[C@@H](O)CO	H37Rv	BACTEC	EC50	-	>12.5 µg/mL
Cc1csc(C(C)(O)c2nnc(Nc3ncn(Cc4c(F)cccc4F)n3)s2)n1	M103L	-	MIC	-	>25 µM
O=C1C=CC(O)(c2nc3ccccc3s2)C=C1	H37Rv	-	EC50	-	<6.25 µg/mL
Clc1ccc(C(Cn2ccnc2)NCc2cccc3ccccc23)c(Cl)c1	CIP103471	-	MIC	-	>16 µg/mL
N=C1C=CC(O)(c2nc3ccccc3s2)C(SCC(NC(=O)CCC(N)C(=O)O)C(=O)NCC(=O)O)C1	H37Rv	-	MIC	-	>6.25 µg/mL
O=C1c2[nH]c(=O)[nH]c(=O)c2CN1Cc1ccccc1	H37Rv	BACTEC	MIC bound	-	>12.8 µg/mL
O=[N+]([O-])c1ccc(CSc2nnc(-c3ccc([N+](=O)[O-])o3)s2)cc1	H37Rv	-	MIC	-	3.13 µg/mL
FC(F)(F)c1cc(NCCN2CCCCC2)c2cccc(C(F)(F)F)c2n1	H37Rv	-	MIC	-	<6.25 µg/mL
Cc1ccc(NC(=O)C(Cl)(Cl)Cl)cc1[N+](=O)[O-]	H37Rv	BACTEC	MIC bound	-	>12.5 µg/mL
Cc1c(N2CCN(Cc3ccc4c(c3)OCO4)CC2)c([N+](=O)[O-])cc2c(=O)c(C(=O)O)cn(C3CC3)c12	H37Rv	-	MIC	-	0.77 µM
O=[N+]([O-])c1ccc(-c2nnc(SCc3ccccc3[N+](=O)[O-])s2)o1	H37Rv	-	inhibition	6.25 µg/mL	98%
CCN(CC)CCN=c1nc(/C=C/C=C/NN(C)C(=S)SC)c(C)nn1C	H37Rv	BACTEC	MIC	-	64 µg/mL
Nc1ncnc2c1cnn2COC[C@@H](O)CO	H37Rv	BACTEC	EC50	-	>12.5 µg/mL
COc1ccc(C2C=C(c3ccc(NC(=O)C(c4ccc(Cl)cc4)C(C)C)cc3)OC(N)=C2C#N)cc1	H37Rv	BACTEC	inhibition	6.25 µg/mL	0%
C[C@]1(COc2ccc(N3CCC(Oc4ccc(OC(F)(F)F)cc4)CC3)cc2)Cn2cc([N+](=O)[O-])nc2O1	31 strains (rifampicin-susceptible)	-	MIC90	-	0.012 µg/mL
CO[C@H]1/C=C/O[C@@]2(C)Oc3c(C)c(O)c4c(=O)c(c5oc6cc(N7CCN(CC(C)C)CC7)cc(=O)c6nc5c4c3=C2O)NC(=O)/C(C)=C\C=C\[C@H](C)[C@H](O)[C@@H](C)[C@@H](O)[C@@H](C)[C@H](OC(C)=O)[C@@H]1C	2230 (rifampicin-resistant)	-	MIC	-	0.125 µg/mL
C(=C\c1ccccc1)/CNC(Cn1ccnc1)c1ccccc1	CIP103471	-	MIC	-	16 µg/mL
CN1CCN(c2cc3c(cc2F)c(=O)c(C(=O)O)cn3C2CC2)CC1CC#N	H37Rv	BACTEC	inhibition	12.5 µg/mL	-9%
FC(F)(F)c1cc(NCCCNc2cc(C(F)(F)F)nc3c(C(F)(F)F)cccc23)c2cccc(C(F)(F)F)c2n1	H37Rv	-	inhibition	6.25 µg/mL	10%
Cn1c([N+](=O)[O-])cnc1-c1nnc(SCc2ccc([N+](=O)[O-])cc2)s1	H37Rv	-	MIC	-	>6.25 µg/mL
NNC(=O)c1ccncc1	G96V	-	MIC	-	0.06 µg/mL
CCCC[C@@]1(C(=O)CCC)CC[C@@]2(c3ccccc3)ON12	H37Ra	-	MIC	-	100 µg/mL
CN(C)CCN1c2ccccc2Oc2ccccc21.Cl	H37Rv	BACTEC	MIC bound	-	>12.5 µg/mL
Clc1ccc(C(Cn2ccnc2)NCc2ccc(-c3ccccc3)cc2)c(Cl)c1	CIP103471	-	MIC	-	8 µg/mL
CCNC(=O)CNC(=O)C(Cc1ccc([N+](=O)[O-])cc1)NC(=O)OC(C)(C)C	H37Rv	BACTEC	inhibition	12.5 µg/mL	0%
CSc1ncnc2c1cnn2Cc1cn(COC[C@@H](O)CO)nn1	H37Rv	BACTEC	EC50	-	>12.5 µg/mL
COC(=O)CC[C@@H](C)[C@H]1CCC2C3C(C[C@H](O)[C@@]21C)[C@@]1(C)CC[C@H](n2cc(CNCCCNc4ccnc5cc(Cl)ccc45)nn2)C[C@H]1C[C@H]3O	H37Rv	resazurin	MIC90	-	17.3 µM
FC(F)(F)c1cc(NCCCCCNc2cc(C(F)(F)F)nc3c(C(F)(F)F)cccc23)c2cccc(C(F)(F)F)c2n1	H37Rv	-	MIC	-	>6.25 µg/mL
Nc1ccc(C(=O)O)c(O)c1	H37Ra	-	MIC	-	0.05 µg/mL
O=C1C=CC(O)(c2cc3ccccc3s2)C=C1	H37Rv	-	EC50	-	>6.25 µg/mL
OC[C@@H](O)COCn1nncc1Cn1ncc2c(Sc3ccccc3)ncnc21	H37Rv	BACTEC	inhibition	12.5 µg/mL	0%
CC(=O)N1N=C(c2ccc(NC(=O)C(c3ccc(Cl)cc3)C(C)C)cc2)CC1c1ccccc1	H37Rv	BACTEC	inhibition	6.25 µg/mL	95%
COc1ccc(C2CC(=Nc3cccc(Cl)c3)C(=O)N2c2cccc(Cl)c2)cc1	H37Rv	BACTEC	MIC	-	≥12.8 µg/mL
C[C@](Cl)([C@@H](Br)/C=C/[C@](C)(Cl)CBr)[C@@H](Br)CCl	H37Rv	-	MIC	-	>128 µg/mL
Cc1ccc2nc(-c3ccc(NC(=O)c4ccc(N)cc4)c(S(=O)(=O)O)c3)sc2c1	H37Rv	BACTEC	MIC bound	-	>6.25 µg/mL
C#CCSc1nnc(-c2ncc([N+](=O)[O-])n2C)s1	H37Rv	-	MIC	-	>6.25 µg/mL
C[N+]1([O-])[C@@H]2CC[C@H]1CC(O)C2	H37Rv	BACTEC	MIC bound	-	>12.5 µg/mL
Clc1ccc(C(Cn2ccnc2)NCc2cccc3ccccc23)cc1	CIP103471	-	MIC	-	8 µg/mL
Cc1cc(N(C)C)nc2cc(N)ccc12	H37Rv	BACTEC	inhibition	12.5 µg/mL	90%
CCCC(=O)[C@@]1(CCC2OCCO2)CC[C@@]2(c3ccccc3)ON12	H37Ra	-	MIC	-	200 µg/mL
Clc1ccc(OCc2nnc3n2N=C(c2ccccc2)CS3)c(Cl)c1	H37Rv	BACTEC	inhibition	12.5 µg/mL	42%
CCCSc1nnc(-c2ccc([N+](=O)[O-])o2)s1	H37Rv	-	MIC	-	>6.25 µg/mL
C=C/C(C)=C/[C@@]1(C)SC(=O)C(C)=C1O	H37Rv	-	MIC	-	2.5 µg/mL
O=C(COc1ccccc1Cl)N1N=C(c2ccccc2)CC1(O)c1ccccc1	H37Rv	BACTEC	inhibition	12.5 µg/mL	0%
C=C(C)[C@@H]1CC[C@]2(COC(C)=O)CC[C@]3(C)[C@H](CC[C@@H]4[C@@]5(C)CC[C@H](OC(C)=O)C(C)(C)[C@@H]5CC[C@]43C)[C@@H]12	H37Rv	-	MIC	-	>128 µg/mL
CO[C@@H]1[C@@H](OC(N)=O)[C@@H](O)[C@H](Oc2ccc3c(O)c(NC(=O)c4ccc(O)c(CC=C(C)C)c4)c(=O)oc3c2C)OC1(C)C	H37Rv	BACTEC	MIC bound	-	≤128 µg/mL
CC(C)C(C(=O)Nc1ccc(C2=CC(c3ccco3)C(C#N)=C(N)O2)cc1)c1ccc(Cl)cc1	H37Rv	BACTEC	inhibition	6.25 µg/mL	14%
Nc1ccc(N=Nc2ccc(-c3ccc(N=Nc4c(S(=O)(=O)[O-])cc5cc(S(=O)(=O)[O-])c(N=Nc6cccc([N+](=O)[O-])c6)c(N)c5c4O)cc3)cc2)c2cc(S(=O)(=O)[O-])ccc12.[Na+].[Na+].[Na+]	H37Rv	BACTEC	inhibition	12.5 µg/mL	0%
COC1(c2nc3ccccc3s2)C=CC(=NS(=O)(=O)c2ccc(C)cc2)C=C1	H37Rv	-	MIC	-	>6.25 µg/mL
O=C(Nc1ccccc1)N1CCc2c(c(-c3ccccc3)nn2Cc2cn(-c3ccc(C(F)(F)F)cc3)nn2)C1	H37Rv	visual reading	MIC	-	91.98 µM
COc1cc2c3c(c1OC)-c1cc4c(cc1CC3N(C=O)CC2)OCO4	H37Rv	resazurin	MIC	-	>50 µg/mL
O=C(Nc1ccccc1)N1CCc2c(c(-c3ccccc3)nn2Cc2cn(-c3ccc(Br)cc3)nn2)C1	H37Rv	visual reading	MIC	-	90.18 µM
CCCC[C@]1(C(=O)CCC)CC[C@@]2(c3ccccc3)ON12	H37Ra	-	MIC	-	100 µg/mL
C[n+]1c(-c2ccc(Cl)cc2Cl)c2cc(N)ccc2c2ccccc21	H37Rv	BACTEC	inhibition	12.5 µg/mL	-23%
OC[C@@H](O)COCn1cc(Cn2ncc3c(SCc4ccccc4)ncnc32)nn1	H37Rv	BACTEC	EC50	-	>12.5 µg/mL
CC1(C)[C@@H](Br)CC[C@]2(C)O[C@H]3COC(=O)C3=C[C@@H](O)[C@@H]12	H37Rv	-	MIC	-	128 µg/mL
O=[n+]1c2ccccc2n([O-])c2ccccc21.[Cl][Cu][Cl]	H37Rv	BACTEC	inhibition	12.5 µg/mL	100%
Clc1ccc(C(Cn2ccnc2)NC/C=C/c2ccccc2)c(Cl)c1	CIP103471	-	MIC	-	8 µg/mL
COc1c(N2CCNC(C)C2)c(F)cc2c(=O)c(C(=O)O)cn(C3CC3)c12	Strain 460	-	MIC	-	0.25 µg/mL
CC(=O)N1N=C(c2ccc(NC(=O)C(c3ccc(Cl)cc3)C(C)C)cc2)CC1c1ccc(O)cc1	H37Rv	BACTEC	inhibition	6.25 µg/mL	37%
FC(F)(F)c1cc(NCCCCCCCNc2cc(C(F)(F)F)nc3c(C(F)(F)F)cccc23)c2cccc(C(F)(F)F)c2n1	H37Rv	-	inhibition	6.25 µg/mL	78%
Cc1cccc(NCC(=O)NN)c1	H37Rv	BACTEC	inhibition	12.5 µg/mL	10%
Clc1ccc(C(Cn2ccnc2)NCc2ccc(-c3ccccc3)cc2)cc1	CIP103471	-	MIC	-	2 µg/mL
COc1cc2c(cc1OC)CN(c1c([N+](=O)[O-])cc3c(=O)c(C(=O)O)cn(C4CC4)c3c1C)CC2	H37Rv	-	MIC	-	0.39 µM
Cc1ccc2c(c1)Nc1ccccc1C(=O)N2	H37Rv	BACTEC	inhibition	12.5 µg/mL	25%
O=C(Nc1ccccc1)N1CCc2c(c(-c3ccccc3)nn2Cc2cn(-c3ccc(Cl)cc3Cl)nn2)C1	H37Rv	visual reading	MIC	-	184 µM
[C-]#[N+][C@@]1(C)C2CC[C@H]3[C@H]4[C@H](CC[C@]3(C)[N+]#[C-])[C@@H](C)C[C@@H](CC1(C)C)[C@H]24	H37Rv	-	MIC	-	8 µg/mL
c1cnc2c(c1)ccc1cccnc12	H37Rv	-	MIC	-	0.8 µg/mL
O=C(Nc1ccccc1)N1CCc2c(c(-c3ccccc3)nn2Cc2cn(-c3ccc(Cl)cc3)nn2)C1	H37Rv	visual reading	MIC	-	196 µM
CN(C)c1ncnc2c1cnn2COC[C@@H](O)CO	H37Rv	BACTEC	inhibition	12.5 µg/mL	0%
NNC(=O)c1ccncc1	H37Ra	-	MIC	-	0.03 µg/mL
CN(C)CCNc1ccc(O)c2sc3ccccc3c(=O)c12	H37Rv	BACTEC	MIC bound	-	>12.5 µg/mL
CC(C)(C)NCCNc1cc(C(F)(F)F)nc2c(C(F)(F)F)cccc12	H37Rv	-	MIC	-	>6.25 µg/mL